Laboratory results from PMC10801922 (Proceedings of the National Academy of Sciences of the …, 2024).

Biological target: SARS-CoV-2 G614 (wild-type) receptor-binding domain (SARS-CoV-2, UniProt P0DTC2)
Assay: cell-based or functional assay

B1: DXP-604 IgG (antibody, V domains shown)
VH: EVQLVESGGGLIQPGGSLRLSCAASGIIVSSNYMTWVRQAPGKGLEWVSVIYSGGSTFYADSVKGRFTISRDNSKNTLYLQMSSLRAEDTAVYYCARDLGPYGMDVWGQGTTVTVSS
VL: DIQLTQSPSFLSASVGDRVTITCRASQGISSDLAWYQQKPGKAPNLLIYAASTLQSGVPSRFSGSGSGTEFTLTISSLQPEDFATYYCQQLNSDLYTFGQGTKLEIK
neutralisation of authentic SARS-CoV-2 G614, IC50: 300 pM
